Results of unrelated studies side by side (data: NIAID ChemDB).

All rows: whole-cell or culture tests; agent: Candida albicans; read-out: MIC

Rows are shuffled and stem from different studies.

smiles | strain | read by | result
CCC(C)n1ncn(-c2ccc(N3CCN(c4ccc(OC[C@H]5CO[C@](Cn6cncn6)(c6ccc(Cl)cc6Cl)O5)cc4)CC3)cc2)c1=O | Isogenic isolate 8 (25X) |  | 0.015 µg/mL
C[C@H]1COc2c(N3CCC(O)C3)c(F)cn3c(=O)c(C(=O)O)cc1c23 | CCH442 |  | >100 µg/mL
O=C1CCC(c2ccccc2)C(=O)N1 | DSM 1386 |  | >100 µM
C[C@H]1OC(Oc2ccc3c(=O)c(-c4ccc(O)cc4)coc3c2)[C@@H](O)[C@@H](O)[C@H]1O | B02630 |  | 15 µg/mL
CCOC(=O)C1C(c2ccc(C)cc2)CC(c2ccccc2)=CC12NCCN2 |  |  | 25 µg/mL
CCCCCCCCCCCCNC1CCc2cccc(OC)c2C1 |  |  | 2 µM
CCCCCCCCNC1CCc2cc(O)ccc2C1 |  |  | <0.125 µM
CC1(C)C(O)P2(=NP3(=NP(Cl)(Cl)=N2)NCCCN3CCCCN2CCCNP23=NP(Cl)(Cl)=NP2(=N3)C(O)C(C)(C)C2O)C1O | ATCC 102031 | broth dilution | 2–1024 µg/mL
CCOC(=O)/C=C/C(=O)OCC | ATCC 10231 |  | >100 µg/mL
C[C@H](CCC(=O)NCCNCCNC(=O)CC[C@@H](C)[C@H]1CCC2C3CCC4C[C@H](O)CC[C@]4(C)C3C[C@H](C)[C@@]21O)[C@H]1CCC2C3CCC4C[C@H](O)CC[C@]4(C)C3C[C@H](C)[C@@]21O | Isolate 4 |  | 0.012 µM
C=CCc1ccc(O)c(-c2ccc(O)c(CC=C)c2)c1 | YL 346 | broth dilution | 128 µg/mL
CC1(C)CC(=O)C2=C(C1)OC(N)=C(C#N)C2c1cc2ccccc2nc1Oc1ccc(F)cc1 | MTCC 227 |  | 200 µg/mL
O=C1CCC(c2ccccc2)C(=O)N1CCCCN1CCN(Cc2ccccc2)CC1 | DSM 1386 |  | >100 µM
c1ccc(CCN2CN(CCc3ccccc3)c3ccccc32)cc1 |  |  | 400 µg/mL
CCCCCOC(=O)C(F)C(Br)C(=O)OCCCCC | ATCC 10231 |  | >100 µg/mL
O=C(CSc1nc2ccccc2[nH]1)N1CCN(C(c2ccccc2)c2ccc(Cl)cc2)CC1 | ATCC 76615 | broth dilution | >400 µg/mL
CCOC(=O)C1C(c2ccc(OC)cc2)CC(c2ccccc2)=CC12NCCN2 |  |  | 12.5 µg/mL
CCN1c2ccccc2N(CCc2ccccc2)C1CC#N |  |  | 400 µg/mL
C[C@@H]1[C@H](O)[C@@H](C)/C=C/C=C/C=C/C=C/C=C/C=C/C=C/[C@H](OC2O[C@@H](C)[C@H](O)[C@@H](N)[C@H]2O)C[C@@H]2OC(O)(C[C@@H](O)C[C@@H](O)[C@H](O)CC[C@@H](O)C[C@@H](O)CC(=O)C[C@H]1C)C[C@H](O)[C@H]2C(=O)O | MTCC 854 |  | 300 µg/mL
COc1ccc(Oc2nc3ccccc3cc2C2C(C#N)=C(N)OC3=C2C(=O)CC(C)(C)C3)cc1 | MTCC 227 |  | 100 µg/mL
COC(=O)[C@@H](Br)[C@@H](F)C(=O)OC | ATCC 10231 |  | 70 µg/mL
CC[C@H](NC)[C@@H]1CCN(c2c(F)cn3c(=O)c(C(=O)O)cc(C4CC4)c3c2C)C1.Cl | CCH442 |  | 100 µg/mL
Cc1nccn1CC(=O)CN1CCN(C(c2ccccc2)c2ccc(Cl)cc2)CC1 | ATCC 76615 | broth dilution | 25 µg/mL
CCCCCCCCCCCCNC1CCc2cc(OC)ccc2C1 |  |  | 8 µM
COc1cc2cc3c(c(-c4ccc5c(c4)OCO5)c2cc1OC)C(=O)OC3 |  |  | ≥4 µg/mL
CCCCCCCCCCCCCCCCCCNC1CCc2c(O)cccc2C1 |  |  | 64 µM
CCCCCCCCNC1CCc2ccc(OC)cc2C1 |  |  | 0.0625 µM
O=C1C(c2ccc(Cl)cc2)=[N+]([O-])c2ccccc21 |  |  | >12.5 µg/mL
Cc1c(N)nc([C@H](CC(N)=O)NC[C@H](N)C(N)=O)nc1C(=O)N[C@H](C(=O)N[C@H](C)[C@@H](O)[C@H](C)C(=O)N[C@H](C(=O)NCCc1nc(-c2nc(C(=O)NCCC[S+](C)C)cs2)cs1)[C@@H](C)O)C(O[C@@H]1O[C@@H](CO)[C@@H](O)[C@H](O)[C@@H]1O[C@H]1O[C@H](CO)[C@@H](O)[C@H](OC(N)=O)[C@@H]1O)c1cnc[nH]1 | Isolate 94-77 |  | <0.19 µg/mL
COC(=O)c1cc(O)c(O)c(O)c1 | ATCC 10231 | broth dilution | 100 µg/mL
OC1C(F)(F)C(F)(F)C(O)P2(Cl)=NP3(=NP1(Cl)=N2)NCCCN3CCCCN1CCCNP12=NP1(Cl)=NP(Cl)(=N2)C(O)C(F)(F)C(F)(F)C1O | ATCC 102031 | broth dilution | 2–1024 µg/mL
CCCOC(=O)/C=C/C(=O)OCCC | ATCC 10231 |  | >100 µg/mL
CCN1c2ccccc2N(CCc2ccccc2)C1C(=S)S |  |  | 400 µg/mL
O=c1c2ccccc2ncn1NC(c1cccc([N+](=O)[O-])c1)P(=O)(Oc1ccccc1)Oc1ccccc1 |  | agar diffusion / agar | 100 µg/mL
COc1ccc(Oc2nc3ccc(OC)cc3cc2C2C(C#N)=C(N)OC3=C2C(=O)CCC3)cc1 | MTCC 227 |  | 250 µg/mL
O=C1CCC(c2ccccc2)C(=O)N1CCCN1CCN(c2ccccn2)CC1 | DSM 1386 |  | >100 µM
C[C@@H]1[C@H](O)[C@@H](C)/C=C/C=C/CC/C=C/C=C/C=C/C=C/C(O[C@H]2O[C@H](C)[C@@H](O)[C@H](N)[C@@H]2O)CC2O[C@](O)(CC(O)C(O)CCC(O)CC(O)CC(O)CC(=O)O[C@H]1C)CC(O)C2C(=O)O | MTCC 227 | turbidity / visual reading | 100 µg/mL
COc1ccccc1N1CCN(CCCCN2C(=O)CCC(c3ccccc3)C2=O)CC1 | DSM 1386 |  | >100 µM
O=C(Cn1nnc2ccccc21)N1CCN(C(c2ccccc2)c2ccc(Cl)cc2)CC1 | ATCC 76615 | broth dilution | >400 µg/mL
CCCCCCCCCNC1CCc2cc(O)ccc2C1 |  |  | <0.125 µM
O=C1C(c2ccccn2)=[N+]([O-])c2ccccc21 |  |  | 7.81 µg/mL
CCCCCCCCCCNC1CCc2cc(O)ccc2C1 |  |  | <0.125 µM
CC1(C)C(O)NP2(=NP34=NP5(=N2)NCCCN5CCCCN3CCCN4)NC1O | ATCC 102031 | broth dilution | 2–1024 µg/mL
C[C@@H]1[C@H](O)[C@@H](C)/C=C/C=C/CC/C=C/C=C/C=C/C=C/[C@H](O[C@@H]2O[C@H](C)[C@@H](O)[C@H](N)[C@@H]2O)C[C@@H]2O[C@](O)(C[C@@H](O)[C@H](O)CC[C@@H](O)C[C@@H](O)C[C@@H](O)CC(=O)O[C@H]1C)C[C@H](O)[C@H]2C(=O)O | MTCC 227 |  | 500 µg/mL
C/C=C(/C)C(=O)OC1C(C)OC(=O)C(NC(=O)c2nccc(OC)c2O)COC(=O)C1Cc1ccccc1 | IFO1061 |  | 0.78 µg/mL
Cc1cc(Cl)nc(N)n1 |  | agar diffusion / agar | 1000 µg/mL
CSc1ncc([N+](=O)[O-])n1C | 18 isolates |  | 35 µg/mL
Cn1c(-c2ccc3c(c2)C(C)(C)CCC3(C)C)nc2cc(C(=O)O)ccc21 |  |  | 50 µg/mL
CC1(C)C=C2C3CCC4[C@@]5(C)CCC(=O)C(C)(C)C5CC[C@@]4(C)[C@]3(C)CC[C@@]2(C(=O)O)CC1 | ATCC 10231 | broth dilution | >200 µg/mL
CCCCCCOC(=O)/C=C/C(=O)OCCCCCC | ATCC 10231 |  | >100 µg/mL
Nn1cnc2ccccc2c1=O |  | agar diffusion / agar | 1000 µg/mL
CCC(C)/C=C(\C)C(=O)CC1(O)CC(=O)c2c(O)cc(O)cc2C1 |  |  | 40 µg/mL
Cc1ccccc1.Cc1ccccc1.SP1(Sc2ccccc2)=NP2(=NP(Cl)(Cl)=N1)NCCCN2CCCCN1CCCNP12=NP(Cl)(Cl)=NP(S)(Sc1ccccc1)=N2 | ATCC 102031 | broth dilution | 2–1024 µg/mL
ClCCN1CCN(C(c2ccccc2)c2ccc(Cl)cc2)CC1 | ATCC 76615 | broth dilution | 200 µg/mL
CCCCCCCCCCCCCCNC1CCc2ccc(OC)cc2C1 |  |  | 32 µM
O=Cc1c(O)ccc2ccc(=O)oc12 |  | broth dilution | 14000 µM
CCCCCCCCCCNC1CCc2cc(OC)ccc2C1 |  |  | 0.03125 µM
OC(CCl)CN1CCN(C(c2ccccc2)c2ccc(Cl)cc2)CC1 | ATCC 76615 | broth dilution | 100 µg/mL
C[C@@H]1[C@H](O)[C@@H](C)/C=C/C=C/CC/C=C/C=C/C=C/C=C/C(O[C@H]2O[C@H](C)[C@@H](O)[C@H](N)[C@@H]2O)CC2O[C@](O)(CC(O)C(O)CCC(O)CC(O)CC(O)CC(=O)O[C@H]1C)CC(O)C2C(=O)O | ATCC 10231 |  | 3.125 µg/mL
O=C(CN1CCN(C(c2ccccc2)c2ccc(Cl)cc2)CC1)Cn1cnc([N+](=O)[O-])c1 | ATCC 76615 | broth dilution | 25 µg/mL
C=C(C)CN1CC(OCC23C[C@@H]4[C@H](C)CC[C@H]4C4(C=O)CC2C=C(C(C)C)[C@@]34C(O)O)O[C@H](C)[C@@H](O)C1 | SANK51486 |  | 0.016 µg/mL
COc1c(C)cc2ccc(O)c(C=O)c2c1O | ATCC 90028 | MTT / broth dilution | 5 µg/mL
c1ccc(-c2ccc(C(c3ccccc3)n3ccnc3)cc2)cc1 |  |  | >125 µg/mL
Cc1c(N2CCC(n3ccnn3)C2)c(F)cn2c(=O)c(C(=O)O)cc(C3CC3)c12 | CCH442 |  | >100 µg/mL
COc1ccc2c(c1)C(=O)C(c1cccnc1)=[N+]2[O-] |  |  | 7.81 µg/mL
CCOC(=O)C1C(c2ccc(F)cc2)CC(c2ccccc2)=CC12NCCN2 | CaCYP51 |  | 200 µg/mL
CCCCCOC(=O)/C=C\C(=O)OCCCCC | ATCC 10231 |  | >100 µg/mL
Nc1[nH]c(=O)ncc1F | ATCC 64549 |  | 200 µg/mL
CC1(C)C=C2C3CCC4[C@@]5(C)CCC(O)C(C)(C)C5CC[C@@]4(C)[C@]3(C)CC[C@@]2(C(=O)O)CC1 | ATCC 10231 | broth dilution | >200 µg/mL
CC(CP(c1ccccc1)c1ccccc1)(CP(c1ccccc1)c1ccccc1)CP(c1ccccc1)c1ccccc1 |  |  | 500 µg/mL
Cc1cc(Cl)nc(NC(c2ccc(Cl)cc2)P(=O)(Oc2ccccc2)Oc2ccccc2)n1 |  | agar diffusion / agar | 100 µg/mL
Cc1ccc2nc(Oc3ccc(F)cc3)c(C3C(C#N)=C(N)OC4=C3C(=O)CCC4)cc2c1 | MTCC 227 |  | 250 µg/mL
S=C(S)C1N(CCc2ccccc2)c2ccccc2N1CCc1ccccc1 |  |  | 200 µg/mL
COc1ccc(Oc2nc3ccc(C)cc3cc2C2C(C#N)=C(N)OC3=C2C(=O)CCC3)cc1 | MTCC 227 |  | 500 µg/mL
COc1ccc2cc3[n+](cc2c1O)CCc1cc2c(cc1-3)OCO2 | ATCC 10231 |  | >500 µg/mL
COC(=O)/C=C\C(=O)OC | ATCC 10231 |  | >100 µg/mL

A second listing of 7 rows from above:

smiles | strain | read by | result
O=C(CN1CCN(C(c2ccccc2)c2ccc(Cl)cc2)CC1)Cn1cnc([N+](=O)[O-])c1 | ATCC 76615 | broth dilution | 25 µg/mL
O=C1C(c2ccccn2)=[N+]([O-])c2ccccc21 |  |  | 7.81 µg/mL
Cc1cc(Cl)nc(NC(c2ccc(Cl)cc2)P(=O)(Oc2ccccc2)Oc2ccccc2)n1 |  | agar diffusion / agar | 100 µg/mL
CC1(C)C=C2C3CCC4[C@@]5(C)CCC(O)C(C)(C)C5CC[C@@]4(C)[C@]3(C)CC[C@@]2(C(=O)O)CC1 | ATCC 10231 | broth dilution | >200 µg/mL
Nn1cnc2ccccc2c1=O |  | agar diffusion / agar | 1000 µg/mL
CCOC(=O)/C=C/C(=O)OCC | ATCC 10231 |  | >100 µg/mL
C[C@H]1COc2c(N3CCC(O)C3)c(F)cn3c(=O)c(C(=O)O)cc1c23 | CCH442 |  | >100 µg/mL

Two numbers with a dash give a range or band. An empty or dashed field is not shown.